# Test results from BindingDB's records for 23978130.
# Molecular target: Polymerase acidic protein [1-204,T86I,G186S] (Influenza A virus (A/Netherlands/2631_1202/2010(H1N1)), UniProt P13166, T86I/G186S)
# Assay: Fragment Screening
row,Structure (SMILES),IC50
1,Brc1cnc2ccccn12,> 1000 µM
2,Oc1ccc(-n2ccnc2)cc1,1000 µM
3,Nc1c(C(=O)O)sc2ncccc12,> 1000 µM
4,COC(=O)c1c(SC)nc(-c2ccccc2)[nH]c1=O,250 µM
5,O=c1[nH]cc(Cl)cc1O,25 µM
6,O=C(O)c1ccc(-n2cncn2)cc1,> 1000 µM
7,Nc1ccncc1Br,> 1000 µM
8,Nc1ccc(Br)nc1,> 1000 µM
9,CN1CCc2cc(O)c(O)cc2C1Cc1ccc(O)c(O)c1 (centres undefined),2 µM
